Compound potency records, mixed from different reports. Data source: NIAID ChemDB in PubChem.

Shared fields: whole-cell or culture tests; species: HIV-1; method: cytopathic effect / MTT; measure: EC50

An empty or dashed field is not shown. Rows are shuffled and stem from different studies. ECn is the concentration giving n% inhibition of infection, replication or growth.

{"smiles": "O=C1/C(=N\\n2c(-c3ccncc3)n[nH]c2=S)c2ccccc2N1CN1CCCCC1", "cells": "MT-4", "strain": "IIIB", "result": ">10 µM"}
{"smiles": "Cc1c(Cc2ccccc2)[nH]c(=O)[nH]c1=O", "cells": "MT-4", "strain": "IIIB", "result": ">200 µM"}
{"smiles": "Cc1cn([C@H]2C=C[C@@H](CO)O2)c(=O)[nH]c1=O", "cells": "MT-4", "strain": "RD 04-RT-210W 215D Recombinant", "result": "0.5 µM"}
{"smiles": "CCCCCOc1nc(Cc2ccccc2)cc(=O)[nH]1", "cells": "MT-4", "strain": "IIIB", "result": "37 µM"}
{"smiles": "COC1=C(C2=C(Cl)C(=O)c3ccccc3C2=O)C(=O)c2ccc(OC)cc2C1=O", "cells": "CEM", "strain": "IIIB", "result": "1.2 µM"}
{"smiles": "O=C(O)c1ccc(OCc2nc3cc(C(F)(F)F)ccc3n3cccc23)cc1", "cells": "MT-4", "result": ">100 µM"}
{"smiles": "O=C1C=CC(=C(c2ccc(O)cc2)c2ccc(O)cc2)C=C1", "cells": "MT-4", "strain": "IIIB", "result": ">100 µg/mL"}
{"smiles": "COc1c2c(cc3c1[C@H](c1ccc(O)c(Oc4ccccc4)c1)[C@H]1C(=O)OC[C@@H]1C3)OCO2", "cells": "MT-4", "strain": "IIIB", "result": "5.06 µM"}
{"smiles": "CCCOc1nc(Cc2ccccc2)c(C)c(=O)[nH]1", "cells": "MT-4", "strain": "IIIB", "result": "29 µM"}
{"smiles": "Cc1cccc(O)c1O", "cells": "MT-4", "strain": "IIIB", "result": "75 µg/mL"}
{"smiles": "CC1(C)C=Cc2c(ccc3c2C(=O)C(=O)C(C2=C(I)C(=O)c4ccccc4C2=O)=C3O)O1", "cells": "CEM", "strain": "IIIB", "result": "2 µM"}
{"smiles": "COc1ccc(CCN2C(=O)/C(=C\\c3cccc(Oc4ccccc4)c3)N(CCc3ccc(OC)c(OC)c3)C2=S)cc1OC", "cells": "MT-4", "strain": "IIIB", "result": ">37.8 µg/mL"}
{"smiles": "COC(=O)/C=C1\\S/C(=N/N=C/c2ccc(OCc3ccccc3)cc2)NC1=O", "cells": "MT-4", "strain": "IIIB", "result": ">97.45 µM"}
{"smiles": "COc1ccc(/C=C2\\C(=O)N(CCc3ccc(OC)c(OC)c3)C(=S)N2CCc2ccc(OC)c(OC)c2)cc1", "cells": "MT-4", "strain": "IIIB", "result": ">78.75 µg/mL"}
{"smiles": "COc1ccc([C@H]2c3c(cc4c(c3OC)OCO4)C[C@H]3CSC[C@@H]32)cc1OCc1ccccc1", "cells": "MT-4", "strain": "IIIB", "result": "3.3 µM"}
{"smiles": "CN(C)CN1C(=O)/C(=N\\n2c(-c3ccncc3)n[nH]c2=S)c2cc(Br)ccc21", "cells": "MT-4", "strain": "IIIB", "result": ">11 µM"}
{"smiles": "NC1=NS(=O)(=O)N(COCCO)C=C1", "cells": "MT-4", "result": ">400 µg/mL"}
{"smiles": "COc1ccc(CCN2C(=O)/C(=C\\c3cc(OC)c(OC)c(OC)c3)N(CCc3ccc(OC)c(OC)c3)C2=S)cc1OC", "cells": "MT-4", "strain": "IIIB", "result": ">13.45 µg/mL"}
{"smiles": "COC1=C(C2=C(C3=C(O)C(=O)c4ccccc4C3=O)C(=O)c3ccccc3C2=O)C(=O)c2ccccc2C1=O", "cells": "CEM", "strain": "IIIB", "result": "43.3 µM"}
{"smiles": "O=C1/C(=N\\n2c(-c3ccncc3)n[nH]c2=S)c2cc(Cl)ccc2N1CN1CCCCC1", "cells": "MT-4", "strain": "IIIB", "result": ">11 µM"}
{"smiles": "COc1cccc2c1C(=O)C(C1=C(Cl)C(=O)c3ccccc3C1=O)=C(Cl)C2=O", "cells": "CEM", "strain": "IIIB", "result": "6.6 µM"}
{"smiles": "CCCOc1nc(Cc2ccccc2)cc(=O)[nH]1", "cells": "MT-4", "strain": "IIIB", "result": "32 µM"}
{"smiles": "COc1ccc(CCN2C(=O)/C(=C\\c3ccc(F)cc3)N(CCc3ccc(OC)c(OC)c3)C2=S)cc1OC", "cells": "MT-4", "strain": "IIIB", "result": ">18.5 µg/mL"}
{"smiles": "COc1cc([C@H]2c3c(cc(OC)c(OC)c3OC)C[C@H]3CSC[C@@H]32)cc(OC)c1OC", "cells": "MT-4", "strain": "IIIB", "result": "0.8 µM"}
{"smiles": "CN(C)CN1C(=O)/C(=N\\n2c(-c3ccncc3)n[nH]c2=S)c2ccccc21", "cells": "MT-4", "strain": "IIIB", "result": ">10 µM"}
{"smiles": "CC(C)(C)[Si](C)(C)CCOCN1C=CC(=O)N(COCC[Si](C)(C)C(C)(C)C)S1(=O)=O", "cells": "MT-4", "result": ">400 µg/mL"}
{"smiles": "O=C1Nc2ccc(Br)cc2/C1=N/n1c(-c2ccncc2)n[nH]c1=S", "cells": "MT-4", "strain": "IIIB", "result": ">11 µM"}
{"smiles": "Nc1nc2c(ncn2[C@@H]2C[C@@H](F)[C@H](CO)O2)c(=O)[nH]1", "cells": "MT-4", "result": ">100 µM"}
{"smiles": "CCOC(=O)c1ccc(Nc2nc3ccccc3n3cccc23)cc1", "cells": "MT-4", "result": ">100 µM"}
{"smiles": "O=C1/C(=N\\n2c(-c3ccncc3)n[nH]c2=S)c2ccccc2N1CN1CCOCC1", "cells": "MT-4", "strain": "IIIB", "result": ">14 µM"}
{"smiles": "CCCCOc1nc(Cc2ccccc2)c(C)c(=O)[nH]1", "cells": "MT-4", "strain": "IIIB", "result": "6.2 µM"}
{"smiles": "COC(=O)/C=C1\\S/C(=N/N=C/c2ccc(Cl)cc2)NC1=O", "cells": "MT-4", "strain": "IIIB", "result": ">4.23 µM"}
{"smiles": "O=C(O)CCc1ccc(O)c(O)c1", "cells": "MT-4", "strain": "IIIB", "result": "7 µg/mL"}
{"smiles": "COC(=O)/C=C1\\S/C(=N/N=C/c2ccc(N(C)C)cc2)NC1=O", "cells": "MT-4", "strain": "IIIB", "result": ">87.25 µM"}
{"smiles": "C#CCOCN1C=CC(=O)N(COCC#C)S1(=O)=O", "cells": "MT-4", "result": ">400 µg/mL"}
{"smiles": "COc1cc(OC)cc(OCc2nc3cc(C(F)(F)F)ccc3n3cccc23)c1", "cells": "MT-4", "result": ">100 µM"}
{"smiles": "O=C1C=CN(COCc2ccccc2)S(=O)(=O)N1COCc1ccccc1", "cells": "MT-4", "result": ">400 µg/mL"}
{"smiles": "O=C(O)c1ccc(OCc2nc3ccccc3n3cccc23)cc1", "cells": "MT-4", "result": ">8 µM"}
{"smiles": "COc1cc([C@H]2c3c(cc4c(c3OC)OCO4)C[C@H]3CSC[C@@H]32)cc(C)c1OC", "cells": "MT-4", "strain": "IIIB", "result": "5.1 µM"}
{"smiles": "C#CCOCN1C=C(C#N)C(N)=NS1(=O)=O", "cells": "MT-4", "result": ">400 µg/mL"}
{"smiles": "COc1ccc2c(c1)C(=O)C(Cl)=C(C1=C(Cl)C(=O)c3ccccc3C1=O)C2=O", "cells": "CEM", "strain": "IIIB", "result": "7.1 µM"}
{"smiles": "Oc1cccc(O)c1O", "cells": "MT-4", "strain": "IIIB", "result": "10 µg/mL"}
{"smiles": "O=C1C(Cl)=C(C2=C(Cl)C(=O)c3ccccc3C2=O)C(=O)c2ccccc21", "cells": "CEM", "strain": "IIIB", "result": "3.3 µM"}
{"smiles": "COC(=O)/C=C1\\S/C(=N/N=C/c2ccc(OC)cc2)NC1=O", "cells": "MT-4", "strain": "IIIB", "result": ">72.1 µM"}
{"smiles": "COc1ccc(CCN2C(=O)/C(=C\\c3ccccc3)N(CCc3ccc(OC)c(OC)c3)C2=S)cc1OC", "cells": "MT-4", "strain": "IIIB", "result": ">62.95 µg/mL"}
{"smiles": "O=c1cc(Cc2ccccc2)nc(OC2CCCCC2)[nH]1", "cells": "MT-4", "strain": "IIIB", "result": "9 µM"}
{"smiles": "CC(C)(C)[Si](C)(C)CCOCN1C=C(C#N)C(N)=NS1(=O)=O", "cells": "MT-4", "result": ">400 µg/mL"}

Again, the opening 6 rows:

smiles,cells,strain,result
O=C1/C(=N\n2c(-c3ccncc3)n[nH]c2=S)c2ccccc2N1CN1CCCCC1,MT-4,IIIB,>10 µM
Cc1c(Cc2ccccc2)[nH]c(=O)[nH]c1=O,MT-4,IIIB,>200 µM
Cc1cn([C@H]2C=C[C@@H](CO)O2)c(=O)[nH]c1=O,MT-4,RD 04-RT-210W 215D Recombinant,0.5 µM
CCCCCOc1nc(Cc2ccccc2)cc(=O)[nH]1,MT-4,IIIB,37 µM
COC1=C(C2=C(Cl)C(=O)c3ccccc3C2=O)C(=O)c2ccc(OC)cc2C1=O,CEM,IIIB,1.2 µM
O=C(O)c1ccc(OCc2nc3cc(C(F)(F)F)ccc3n3cccc23)cc1,MT-4,,>100 µM